Test results: patent US20240150396A1 (The Texas A&M University System, priority 2021, published 2024)

Assays:
[1] = test system: SARS-CoV-2 in Vero E6 cells; assay: Anti-CoV-2 activity in Vero E6 cells; assay type: cell-based; details: read-out: Anti-CoV-2 EC50 Vero E6 Cells
[2] = biological target: SARS-CoV-2 3CL protease (Severe acute respiratory syndrome coronavirus 2 (2019-nCoV) (SARS-CoV-2), UniProt P0DTD1); details: read-out: Ki* 3CLpro; pH 7.5
[3] = test system: SARS-CoV-2 in A549/ACE2 cells; details: read-out: Anti-CoV-2 EC50 A549/ACE2 Cells

| SMILES | EC50 [1] | Ki [2] | EC50 [3] |
| --- | --- | --- | --- |
| CC(C)C[C@H](NC(=O)c1cc2ccccc2[nH]1)C(=O)N[C@H](C=O)Cc1ccc[nH]c1=O | > 20 µM | – | – |
| CC(C)[C@H](NC(=O)OCc1ccccc1)C(=O)N[C@@H](CC1CCCCC1)C(=O)N[C@H](C=O)Cc1ccc[nH]c1=O | – | 0.009 µM | 5 µM |
| CC(=O)N[C@H](C(=O)N1CCC[C@H]1C(=O)N[C@H](C=O)Cc1ccc[nH]c1=O)C(C)C | > 20 µM | – | – |
| O=C[C@H](Cc1ccc[nH]c1=O)NC(=O)[C@H](Cc1ccc([N+](=O)[O-])cc1)NC(=O)c1cc2ccccc2[nH]1 | > 20 µM | – | – |
| CC(=O)N[C@H](C(=O)N[C@@H](CC1CCCCC1)C(=O)N[C@H](C=O)Cc1ccc[nH]c1=O)C(C)C | > 20 µM | 0.06 µM | – |
